Reference: the NIST ThermoML archive (doi:10.1016/j.jct.2018.07.024)
± gives the expanded uncertainty stated by the source.

Test: activity coefficient (dimensionless); xn = mol fraction of the nth substance listed
Conditions: 101.33 kPa, Liquid, Chromatography, x1 = 0

| SMILES | activity coefficient (318.15 K) | activity coefficient (328.15 K) | activity coefficient (338.15 K) | activity coefficient (348.15 K) | activity coefficient (358.15 K) | activity coefficient (368.15 K) |
| --- | --- | --- | --- | --- | --- | --- |
| CCCCCCCCCC [decane] + CCCCCCCC[N+](CC)(CC)CC.O=S(=O)(F)[N-]S(=O)(=O)F | 24.2 ± 1.7 | 23.5 ± 1.6 | 22.9 ± 1.6 | 22.4 ± 1.5 | 21.9 ± 1.5 | 21.4 ± 1.5 |
| C=CCCCCCC [oct-1-ene] + CCCC[N+]1(C)CCCC1.O=S(=O)(F)[N-]S(=O)(=O)F | 25.4 ± 1.7 | 25 ± 1.7 | 24.7 ± 1.7 | 24.3 ± 1.7 | 24.1 ± 1.6 | 23.9 ± 1.6 |
| CCCC(=O)OC [methyl butanoate] + CCCC[N+]1(C)CCCC1.O=S(=O)(F)[N-]S(=O)(=O)F | 1.65 ± 0.11 | 1.75 ± 0.12 | 1.84 ± 0.12 | 1.95 ± 0.13 | 2.05 ± 0.14 | 2.15 ± 0.15 |
| CCCOCCC [dipropyl ether] + CCCCCCCC[N+](CC)(CC)CC.O=S(=O)(F)[N-]S(=O)(=O)F | 4.03 ± 0.27 | 4.14 ± 0.28 | 4.24 ± 0.29 | 4.34 ± 0.3 | 4.42 ± 0.3 | 4.53 ± 0.31 |
| CC(C)OC(C)C [diisopropyl ether] + CCCC[N+]1(C)CCCC1.O=S(=O)(F)[N-]S(=O)(=O)F | 9.39 ± 0.64 | 9.69 ± 0.66 | 9.95 ± 0.68 | 10.2 ± 0.7 | 10.5 ± 0.7 | 10.7 ± 0.7 |
| C#CCCCCC [1-heptyne] + CCCCCCCC[N+](CC)(CC)CC.O=S(=O)(F)[N-]S(=O)(=O)F | 2.36 ± 0.16 | 2.49 ± 0.17 | 2.62 ± 0.18 | 2.74 ± 0.19 | 2.88 ± 0.2 | 3 ± 0.2 |
| CC(C)=O [acetone] + CCCC[N+]1(C)CCCC1.O=S(=O)(F)[N-]S(=O)(=O)F | 0.601 ± 0.042 | 0.639 ± 0.044 | 0.677 ± 0.046 | 0.715 ± 0.048 | 0.754 ± 0.05 | 0.794 ± 0.052 |
| C=C(C)c1ccccc1 [(1-methylethenyl)benzene] + CCCCCCCC[N+](CC)(CC)CC.O=S(=O)(F)[N-]S(=O)(=O)F | 0.868 ± 0.055 | 0.955 ± 0.06 | 1.04 ± 0.07 | 1.14 ± 0.07 | 1.23 ± 0.08 | 1.33 ± 0.09 |
| CCCCCCCC [octane] + CCCC[N+]1(C)CCCC1.O=S(=O)(F)[N-]S(=O)(=O)F | 55.4 ± 3.8 | 53 ± 3.6 | 50.9 ± 3.5 | 49 ± 3.4 | 47.2 ± 3.2 | 45.6 ± 3.1 |
| C1CCCC1 [cyclopentane] + CCCC[N+]1(C)CCCC1.O=S(=O)(F)[N-]S(=O)(=O)F | 9.68 ± 0.66 | 9.53 ± 0.65 | 9.39 ± 0.64 | 9.28 ± 0.63 | 9.17 ± 0.63 | 9.05 ± 0.62 |
| Cc1ccccc1C [1,2-dimethylbenzene] + CCCCCCCC[N+](CC)(CC)CC.O=S(=O)(F)[N-]S(=O)(=O)F | 0.992 ± 0.062 | 1.06 ± 0.07 | 1.13 ± 0.07 | 1.2 ± 0.08 | 1.27 ± 0.08 | 1.35 ± 0.09 |
| C#CCCCC [1-hexyne] + CCCC[N+]1(C)CCCC1.O=S(=O)(F)[N-]S(=O)(=O)F | 3.58 ± 0.24 | 3.79 ± 0.26 | 3.98 ± 0.27 | 4.19 ± 0.29 | 4.39 ± 0.3 | 4.59 ± 0.31 |
| CCC(=O)CC [pentan-3-one] + CCCC[N+]1(C)CCCC1.O=S(=O)(F)[N-]S(=O)(=O)F | 1.01 ± 0.06 | 1.08 ± 0.07 | 1.16 ± 0.07 | 1.23 ± 0.08 | 1.31 ± 0.09 | 1.38 ± 0.09 |
| C#CCCCCCC [1-octyne] + CCCCCCCC[N+](CC)(CC)CC.O=S(=O)(F)[N-]S(=O)(=O)F | 3 ± 0.2 | 3.16 ± 0.22 | 3.31 ± 0.23 | 3.47 ± 0.24 | 3.61 ± 0.25 | 3.76 ± 0.26 |
| Cc1ccc(C)cc1 [1,4-dimethylbenzene] + CCCCCCCC[N+](CC)(CC)CC.O=S(=O)(F)[N-]S(=O)(=O)F | 1.1 ± 0.07 | 1.18 ± 0.08 | 1.26 ± 0.08 | 1.34 ± 0.09 | 1.43 ± 0.09 | 1.51 ± 0.1 |
| C=Cc1ccccc1 [styrene] + CCCC[N+]1(C)CCCC1.O=S(=O)(F)[N-]S(=O)(=O)F | 1.28 ± 0.08 | 1.37 ± 0.09 | 1.46 ± 0.1 | 1.55 ± 0.1 | 1.64 ± 0.11 | 1.74 ± 0.12 |
| CCC(C)CC [3-methylpentane] + CCCC[N+]1(C)CCCC1.O=S(=O)(F)[N-]S(=O)(=O)F | 25.5 ± 1.7 | 24.9 ± 1.7 | 24.3 ± 1.7 | 23.8 ± 1.6 | 23.3 ± 1.6 | 22.8 ± 1.6 |

| SMILES | activity coefficient (318.15 K) | activity coefficient (328.15 K) | activity coefficient (338.15 K) | activity coefficient (348.15 K) | activity coefficient (358.15 K) | activity coefficient (368.15 K) |
| --- | --- | --- | --- | --- | --- | --- |
| C1CCCCC1 [cyclohexane] + CCCC[N+]1(C)CCCC1.O=S(=O)(F)[N-]S(=O)(=O)F | 13.8 ± 0.9 | 13.5 ± 0.9 | 13.2 ± 0.9 | 13 ± 0.9 | 12.8 ± 0.9 | 12.5 ± 0.9 |
| C=COC(C)=O [vinyl acetate] + CCCCCCCC[N+](CC)(CC)CC.O=S(=O)(F)[N-]S(=O)(=O)F | 0.953 ± 0.06 | 0.998 ± 0.062 | 1.05 ± 0.07 | 1.09 ± 0.07 | 1.13 ± 0.07 | 1.18 ± 0.08 |
| Cc1ccccc1C [1,2-dimethylbenzene] + CCCC[N+]1(C)CCCC1.O=S(=O)(F)[N-]S(=O)(=O)F | 1.85 ± 0.12 | 1.96 ± 0.13 | 2.08 ± 0.14 | 2.19 ± 0.15 | 2.31 ± 0.16 | 2.42 ± 0.16 |
| CCC(C)(C)C [2,2-dimethylbutane] + CCCCCCCC[N+](CC)(CC)CC.O=S(=O)(F)[N-]S(=O)(=O)F | 9.3 ± 0.63 | 9.14 ± 0.62 | 9.04 ± 0.62 | 8.93 ± 0.61 | 8.83 ± 0.6 | 8.77 ± 0.6 |
| CC(C)(C)O [2-methylpropan-2-ol] + CCCCCCCC[N+](CC)(CC)CC.O=S(=O)(F)[N-]S(=O)(=O)F | 1.88 ± 0.13 | 1.82 ± 0.12 | 1.76 ± 0.12 | 1.71 ± 0.11 | 1.66 ± 0.11 | 1.62 ± 0.11 |
| CCO [ethanol] + CCCC[N+]1(C)CCCC1.O=S(=O)(F)[N-]S(=O)(=O)F | 2.32 ± 0.16 | 2.21 ± 0.15 | 2.1 ± 0.14 | 2 ± 0.14 | 1.91 ± 0.13 | 1.83 ± 0.12 |
| c1ccncc1 [pyridine] + CCCC[N+]1(C)CCCC1.O=S(=O)(F)[N-]S(=O)(=O)F | 0.639 ± 0.044 | 0.678 ± 0.046 | 0.715 ± 0.048 | 0.754 ± 0.05 | 0.793 ± 0.052 | 0.83 ± 0.053 |
| CCc1ccccc1 [ethylbenzene] + CCCC[N+]1(C)CCCC1.O=S(=O)(F)[N-]S(=O)(=O)F | 2.27 ± 0.15 | 2.41 ± 0.16 | 2.53 ± 0.17 | 2.67 ± 0.18 | 2.8 ± 0.19 | 2.93 ± 0.2 |
| CCCCO [butan-1-ol] + CCCCCCCC[N+](CC)(CC)CC.O=S(=O)(F)[N-]S(=O)(=O)F | 2.51 ± 0.17 | 2.37 ± 0.16 | 2.24 ± 0.15 | 2.12 ± 0.14 | 2.02 ± 0.14 | 1.93 ± 0.13 |
| CCC(C)(C)C [2,2-dimethylbutane] + CCCC[N+]1(C)CCCC1.O=S(=O)(F)[N-]S(=O)(=O)F | 25.8 ± 1.8 | 25.5 ± 1.7 | 25.1 ± 1.7 | 24.7 ± 1.7 | 24.4 ± 1.7 | 24.2 ± 1.7 |
| c1ccccc1 [benzene] + CCCCCCCC[N+](CC)(CC)CC.O=S(=O)(F)[N-]S(=O)(=O)F | 0.634 ± 0.044 | 0.676 ± 0.046 | 0.718 ± 0.048 | 0.761 ± 0.05 | 0.804 ± 0.052 | 0.847 ± 0.054 |
| O [water] + CCCCCCCC[N+](CC)(CC)CC.O=S(=O)(F)[N-]S(=O)(=O)F | 4.94 ± 0.34 | 4.46 ± 0.3 | 4.05 ± 0.28 | 3.69 ± 0.25 | 3.39 ± 0.23 | 3.12 ± 0.21 |
| CCCO [propan-1-ol] + CCCC[N+]1(C)CCCC1.O=S(=O)(F)[N-]S(=O)(=O)F | 2.84 ± 0.19 | 2.68 ± 0.18 | 2.54 ± 0.17 | 2.42 ± 0.16 | 2.3 ± 0.16 | 2.21 ± 0.15 |
| C1CCCC1 [cyclopentane] + CCCCCCCC[N+](CC)(CC)CC.O=S(=O)(F)[N-]S(=O)(=O)F | 4.01 ± 0.27 | 4 ± 0.27 | 4.01 ± 0.27 | 4 ± 0.27 | 4 ± 0.27 | 3.99 ± 0.27 |
| CCCCCCC [heptane] + CCCCCCCC[N+](CC)(CC)CC.O=S(=O)(F)[N-]S(=O)(=O)F | 11.4 ± 0.8 | 11.3 ± 0.8 | 11.2 ± 0.8 | 11.1 ± 0.8 | 10.9 ± 0.7 | 10.8 ± 0.7 |
| C#CCCCC [1-hexyne] + CCCCCCCC[N+](CC)(CC)CC.O=S(=O)(F)[N-]S(=O)(=O)F | 1.85 ± 0.12 | 1.96 ± 0.13 | 2.07 ± 0.14 | 2.19 ± 0.15 | 2.29 ± 0.16 | 2.4 ± 0.16 |
| CO [methanol] + CCCC[N+]1(C)CCCC1.O=S(=O)(F)[N-]S(=O)(=O)F | 1.83 ± 0.12 | 1.75 ± 0.12 | 1.67 ± 0.11 | 1.6 ± 0.11 | 1.54 ± 0.1 | 1.48 ± 0.1 |
